A mixed list of measured activities; the numbers were collected in NIAID ChemDB.

All rows: growth or infection tests; agent: Candida albicans; measure: zone

Rows are shuffled and stem from different studies. Zones are inhibition diameters on agar. a–b is a range or a potency band.

{"SMILES": "CC[C@H]1OC(=O)[C@H](C)[C@@H](O[C@H]2C[C@@](C)(OC)[C@@H](O)[C@H](C)O2)[C@H](C)[C@@H](O[C@@H]2O[C@H](C)C[C@H](N(C)C)[C@H]2O)[C@](C)(O)C[C@@H](C)C(=O)[C@H](C)[C@@H](O)[C@]1(C)O", "strain or isolate": "WILD TYPE", "read by": "agar diffusion", "tested at": "15 µg", "value": "6 mm"}
{"SMILES": "CCCCc1nc(Cl)c(-c2cc(-c3ccco3)nc3c2C(=O)c2ccccc2-3)n1Cc1ccccc1", "strain or isolate": "MTCC 7253", "read by": "agar diffusion", "tested at": "10 µg/disc", "value": "13 mm"}
{"SMILES": "C(/C=C/c1ccccc1)=NCCNCCN=C/C=C/c1ccccc1.[Cl][Hg][Cl]", "read by": "agar diffusion", "tested at": "20000 µg/mL", "value": "27 mm"}
{"SMILES": "Cc1ccc(N2NOC(=O)C2S(=O)(=O)Nc2nc(-c3c(Cl)cccc3Cl)cs2)cc1", "strain or isolate": "MTCC 227", "read by": "agar diffusion", "tested at": "250 µg/mL", "value": "18 mm"}
{"SMILES": "COc1ccc(-c2oc3ccc(Cl)cc3c(=O)c2OC(C)=O)cc1", "read by": "agar diffusion", "tested at": "100 µg/mL", "value": "20 mm"}
{"SMILES": "CCCCc1nc(Cl)c(-c2cc(-c3ccc([N+](=O)[O-])cc3)nc3c2C(=O)c2ccccc2-3)n1Cc1ccccc1", "strain or isolate": "MTCC 7253", "read by": "agar diffusion", "tested at": "10 µg/disc", "value": "11 mm"}
{"SMILES": "O=C1NC(=S)SC1C(O)c1ccc(Cl)cc1Cl", "strain or isolate": "ATCC 2091", "read by": "agar diffusion / agar", "tested at": "100 mg/mL", "value": "10–15 mm"}
{"SMILES": "C[C@@H]([C@H]1CC[C@H](C)C(=O)C1)[C@H]1CC[C@]2(C)C3=C(CC[C@@]12C)[C@]1(C)CC[C@H](O)C(C)(C)[C@H]1CC3", "strain or isolate": "MTCC 183", "read by": "agar diffusion / agar", "tested at": "0.5 µg/disc", "value": "14 mm"}
{"SMILES": "CCn1cc(C(=O)O)c(=O)c2ccc(C)nc21", "strain or isolate": "ATCC 10231", "read by": "agar diffusion", "tested at": "30 µg", "value": "6 mm"}
{"SMILES": "Clc1ccccc1C(c1ccccc1)(c1ccccc1)n1ccnc1", "read by": "agar diffusion", "tested at": "100 µg/mL", "value": "23 mm"}
{"SMILES": "CC(C)=CCOc1ccc(C2CC(=O)c3c(O)cc(O)cc3O2)cc1", "strain or isolate": "ATCC 10231", "read by": "agar diffusion / agar", "tested at": "100 µg/mL", "value": "12 mm"}
{"SMILES": "CCO[C@@H]1C[C@@H]([C@H](C)[C@H]2CC[C@]3(C)C4=C(CC[C@@]23C)[C@]2(C)CC[C@H](O)C(C)(C)[C@H]2CC4)CC[C@@H]1C", "strain or isolate": "MTCC 183", "read by": "agar diffusion / agar", "tested at": "0.25 µg/disc", "value": "9 mm"}
{"SMILES": "Cc1ccc(N2NOC(=O)C2S(=O)(=O)Nc2ccc(-n3c(-c4c(Cl)cccc4[N+](=O)[O-])nc4ccccc4c3=O)cc2)cc1", "strain or isolate": "MTCC 227", "read by": "agar diffusion", "tested at": "250 µg/mL", "value": "21 mm"}
{"SMILES": "CCCCc1nc(Cl)c(-c2cc(-c3ccc(OC)cc3)nc3c2C(=O)c2ccccc2-3)n1Cc1ccccc1", "strain or isolate": "MTCC 7253", "read by": "agar diffusion", "tested at": "10 µg/disc", "value": "12 mm"}
{"SMILES": "O=C1NC(=S)SC1C(Sc1ccccc1)c1ccc2ccccc2c1", "strain or isolate": "ATCC 2091", "read by": "agar diffusion / agar", "tested at": "100 mg/mL", "value": "10–15 mm"}
{"SMILES": "CC(C)(CN=C/C=C/c1ccccc1[N+](=O)[O-])CN=C/C=C/c1ccccc1[N+](=O)[O-]", "read by": "agar diffusion", "tested at": "2.5 mg/disc", "value": "19.2 mm"}
{"SMILES": "Cc1ccc(N2NOC(=O)C2S(=O)(=O)Nc2nc3ccc(F)cc3s2)cc1", "strain or isolate": "MTCC 227", "read by": "agar diffusion", "tested at": "250 µg/mL", "value": "23 mm"}
{"SMILES": "CCN(CC)N1C(=O)C(C(Sc2ccccc2)c2ccc(C)cc2)SC1=S", "strain or isolate": "ATCC 2091", "read by": "agar diffusion / agar", "tested at": "100 mg/mL", "value": "10–15 mm"}
{"SMILES": "C[C@@H]1[C@H](O)[C@@H](C)/C=C/C=C/CC/C=C/C=C/C=C/C=C/C(O[C@H]2O[C@H](C)[C@@H](O)[C@H](N)[C@@H]2O)CC2O[C@](O)(CC(O)C(O)CCC(O)CC(O)CC(O)CC(=O)O[C@H]1C)CC(O)C2C(=O)O", "strain or isolate": "MTCC 7253", "read by": "agar diffusion", "tested at": "10 µg/disc", "value": "8 mm"}
{"SMILES": "CC(=O)Oc1c(-c2ccc(N(C)C)cc2)oc2ccccc2c1=O", "read by": "agar diffusion", "tested at": "100 µg/mL", "value": "19 mm"}
{"SMILES": "Cc1ccc(N2NOC(=O)C2S(=O)(=O)Nc2nc(-c3ccc(Cl)cc3)cs2)cc1", "strain or isolate": "MTCC 227", "read by": "agar diffusion", "tested at": "250 µg/mL", "value": "24 mm"}
{"SMILES": "CCOC=C1C(=O)NC(=S)NC1=O", "read by": "agar diffusion / agar", "tested at": "10000 µg/mL", "value": "12 mm"}
{"SMILES": "CC(=O)Oc1c(-c2ccccc2)oc2ccc(Cl)cc2c1=O", "read by": "agar diffusion", "tested at": "100 µg/mL", "value": "17 mm"}
{"SMILES": "COc1ccc2nc(NS(=O)(=O)C3C(=O)ONN3c3ccc(C)cc3)sc2c1", "strain or isolate": "MTCC 227", "read by": "agar diffusion", "tested at": "250 µg/mL", "value": "21 mm"}
{"SMILES": "CCN(CC)N1C(=O)C(C(Sc2ccccc2)c2ccccc2)SC1=S", "strain or isolate": "ATCC 2091", "read by": "agar diffusion / agar", "tested at": "100 mg/mL", "value": "10–15 mm"}
{"SMILES": "CCCCc1nc(Cl)c(-c2cc(-c3ccc(Br)cc3)nc3c2C(=O)c2ccccc2-3)n1Cc1ccccc1", "strain or isolate": "MTCC 7253", "read by": "agar diffusion", "tested at": "10 µg/disc", "value": "10 mm"}
{"SMILES": "O=c1ccc2cc3c(=O)[nH]c(=S)[nH]c3oc-2c1", "read by": "agar diffusion / agar", "tested at": "10000 µg/mL", "value": "0 mm"}
{"SMILES": "O=C1NC(=S)S/C1=C\\c1cccs1", "strain or isolate": "ATCC 2091", "read by": "agar diffusion / agar", "tested at": "100 mg/mL", "value": "5–9 mm"}
{"SMILES": "CCCCc1nc(Cl)c(-c2cc(-c3cccc(Br)n3)nc3c2C(=O)c2ccccc2-3)n1Cc1ccccc1", "strain or isolate": "MTCC 7253", "read by": "agar diffusion", "tested at": "10 µg/disc", "value": "11 mm"}
{"SMILES": "COc1cc(C2CC(=O)c3c(O)cc(O)cc3O2)ccc1OCC=C(C)C", "strain or isolate": "ATCC 14053", "read by": "agar diffusion / agar", "tested at": "100 µg/mL", "value": "0 mm"}
{"SMILES": "C(/C=C/c1ccccc1)=NCCNCCN=C/C=C/c1ccccc1.[Br][Hg][Br]", "read by": "agar diffusion", "tested at": "20000 µg/mL", "value": "25 mm"}
{"SMILES": "O=C1NC(=S)SC1C(Sc1ccccc1)c1ccc(Br)cc1", "strain or isolate": "ATCC 2091", "read by": "agar diffusion / agar", "tested at": "100 mg/mL", "value": "16–20 mm"}
{"SMILES": "COc1ccc(-c2oc3ccc(Cl)cc3c(=O)c2O)cc1", "read by": "agar diffusion", "tested at": "100 µg/mL", "value": "16 mm"}
{"SMILES": "O=C(O)c1cn(C2CC2)c2cc(N3CCNCC3)c(F)cc2c1=O", "strain or isolate": "WILD TYPE", "read by": "agar diffusion", "tested at": "5 µg", "value": "6 mm"}
{"SMILES": "COc1cc(C2C(C#N)=C(NS(=O)(=O)c3ccccc3)Oc3[nH]c(=S)[nH]c(=O)c32)cc(OC)c1OC", "read by": "agar diffusion / agar", "tested at": "10000 µg/mL", "value": "12 mm"}
{"SMILES": "O=c1c(O)c(-c2ccc(Cl)cc2)oc2ccc(Cl)cc12", "read by": "agar diffusion", "tested at": "100 µg/mL", "value": "15 mm"}
{"SMILES": "CCN(CC)N1C(=O)/C(=C/c2ccccc2)SC1=S", "strain or isolate": "ATCC 2091", "read by": "agar diffusion / agar", "tested at": "100 mg/mL", "value": "16–20 mm"}
{"SMILES": "Cc1ccc(N2NOC(=O)C2S(=O)(=O)Nc2nc3ccc(Cl)cc3s2)cc1", "strain or isolate": "MTCC 227", "read by": "agar diffusion", "tested at": "250 µg/mL", "value": "20 mm"}
{"SMILES": "COc1ccc(-c2oc3ccc(Cl)cc3c(=O)c2O)cc1OC", "read by": "agar diffusion", "tested at": "100 µg/mL", "value": "18 mm"}
{"SMILES": "O=C1NC(=S)S/C1=C\\c1ccco1", "strain or isolate": "ATCC 2091", "read by": "agar diffusion / agar", "tested at": "100 mg/mL", "value": "10–15 mm"}
{"SMILES": "C[C@@H]1[C@H](O)[C@@H](C)/C=C/C=C/CC/C=C/C=C/C=C/C=C/C(O[C@H]2O[C@H](C)[C@@H](O)[C@H](N)[C@@H]2O)CC2O[C@](O)(CC(O)C(O)CCC(O)CC(O)CC(O)CC(=O)O[C@H]1C)CC(O)C2C(=O)O", "strain or isolate": "ATCC 10231", "read by": "agar diffusion / agar", "tested at": "100 µg/mL", "value": "12 mm"}
{"SMILES": "CN(C)c1ccc(-c2oc3ccccc3c(=O)c2O)cc1", "read by": "agar diffusion", "tested at": "100 µg/mL", "value": "14 mm"}

For reference, 4 entries again:

SMILES,strain or isolate,read by,tested at,value
O=C1NC(=S)SC1C(Sc1ccccc1)c1ccc(Br)cc1,ATCC 2091,agar diffusion / agar,100 mg/mL,16–20 mm
Cc1ccc(N2NOC(=O)C2S(=O)(=O)Nc2nc3ccc(F)cc3s2)cc1,MTCC 227,agar diffusion,250 µg/mL,23 mm
CC[C@H]1OC(=O)[C@H](C)[C@@H](O[C@H]2C[C@@](C)(OC)[C@@H](O)[C@H](C)O2)[C@H](C)[C@@H](O[C@@H]2O[C@H](C)C[C@H](N(C)C)[C@H]2O)[C@](C)(O)C[C@@H](C)C(=O)[C@H](C)[C@@H](O)[C@]1(C)O,WILD TYPE,agar diffusion,15 µg,6 mm
CCO[C@@H]1C[C@@H]([C@H](C)[C@H]2CC[C@]3(C)C4=C(CC[C@@]23C)[C@]2(C)CC[C@H](O)C(C)(C)[C@H]2CC4)CC[C@@H]1C,MTCC 183,agar diffusion / agar,0.25 µg/disc,9 mm